{
  "source": "paper PMC9734910",
  "about": "“Close relatives of MERS-CoV in bats use ACE2 as their functional receptors” (2022)",
  "target": "PDF-2180 RBD–hFc (domain B fused to human IgG Fc domain) (PDF-2180 (bat coronavirus, infects Pipisrellus hesperidus))",
  "note": "pKd: −log10 of the molar value.",
  "data": [
    {"substance": "soluble Bat37ACE2 ectodomain (Pipistrellus pipistrellus ACE2)", "values": [
      {"measurement": "pKd", "value": 8.89}
    ]}
  ]
}
